# Results taken from PubChem BioAssay AID504862 (Sanford-Burnham Center for Chemical Genomics, 2011).
# The list shows a part of the results, in another mix than the full data. Activity calls are given as the source filed them.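 How the source made its calls: active means average inhibition reaching 50% or more with the compound at 20 µM; inactive means the rest.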
# Test system: diaphorase (Clostridium kluyveri)
# Assay: diaphorase inhibitors and chemical oxidizers, confirmation, counter-screen for P. falciparum G6PD inhibitor project, biochemical, fluorescence intensity, 10 µM NADPH (AID 504862);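 further: resorufin red fluorescence formed as diaphorase reduces resazurin using NADPH; 0% = DMSO with enzyme and 100% = DMSO without enzyme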
# Details: diaphorase-coupled resazurin reduction, NADPH 10 uM, at 20 µM, stronger effect = higher value
compound,measurement,value
O=[N+]([O-])c1cc([N+](=O)[O-])c(Nc2ccccn2)c([N+](=O)[O-])c1,inhibition,active: 50.5%
